This note sets out measurements from the supplement of paper PMC9931576.

Sequences and labels used below:
B1: BD58-0400 (protein)
chain 1: EVQLVESGGGLVQPRGSLRLSCAASGFTFSSYEMNWVRQAPGKGLEWVSYISSSGNTIYYADSVKGRFTISRDNAKNSLYLQMNSLRAEDTAVYYCASHQGYYYYMDVWGKGTTVTVSS
chain 2: EIVMTQSPDTLSVSPGERATLSCRASQSVSSKLAWYQQKPGQAPRLLIYGASTRATGVPARFSGSGSGTEFTLSISSLQSEDFAVYYCQQYNNWPPITFGQGTRLEIK
B2: BD56-418 (protein)
chain 1: QMQLVQSGPEVKKSGTSVKVSCKASGFTFTSSAVQWVRQARGQGLEWIGWIVVGSGNTNYAQKFQERVTISRDMSTSTAYMELSSLRSEDTAVYYCAAPYCSGGSCYDGFDIWGQGTMVTVSS
chain 2: EIVLTQSPGTLSLSPGERATLSCRATQIFRSSYFAWYQQKPGQAPRLLIYGASSRATGIPDRFSGSGSGTDFTLTISRLEPEDFAVYYCQQYDTSPWTFGQGTKVEI
B3: BD56-424 (protein)
chain 1: QVKLVQSGPEVKKPGTSVKVSCEASGFTFSSVTAIQWVRQPRGQGLEWIGWIVVGTGNANYEPKFQERVTITRDMSASTVYMELSSLRSEDTAVYYCAAPSCTSTTCLDGFDIWGQGTMVTVSS
chain 2: EIVLTQSPGTLSLSPGERATLSCRVSQSVSRGYLAWYQQKPGQAPRLLIYGASSRATGIPDRFSGRGSGTDFTLTINRLEPEDFAVYYCQQYGSSPWTFGQGTKVEIK
B4: DH1210 (protein)
chain 1: EVQLVQSGAEVKKPGATVKISCKVSGYTFTDSYIHWVQQAPGKGLEWMGLLDPEDGETINAAKFQGRVTITADTSTDTAYMELRSLRSEDTAVYYCGSGSEAHYGIDYWGQGTLVTVSS
chain 2: QSVLTQPPSVSGTPGQRVTISCSGSSSNIGGNFVYWYQQFPGTAPKLLIYLNNRRPSGVPDRFSGSNSGTSASLAISGLRSEDEAEYYCAAWDDSLSGQKVFGTGTKVTVL
B5: BD56-412 (protein)
chain 1: EVQLVESGGGLVQPGGSLRLSCAASGITVSSNYMSWVRQAPGKGLEWVSLLYSGGSTYYADSVKGRFIVSRDNSKNTLYLQLNSLRAEDTAVYFCARDLQEAGAMDVWGQGTTVIVSS
chain 2: DIQMTQSPSTLSASVGDRVTITCRASQSISRWLAWYQQKPGKAPKLLIFQASTLKSGVPSRFSGSGSGTEFTLTISSLQPFDVATYYCQHYNGYSQTFGQGTKVELK
B6: BD56-432 (protein)
chain 1: QVQLVESGGGVVQPGRSLRLSCAASGFTFIGYGMHWVRQAPGKGLEWVAIISYDGGKEYYADSVKGRFTISRDNSKNTLHLQMNSLRDEDTAVYYCGKDGASKSGWLGELIPSGRLDSWGQGTLVTVSS
chain 2: ETVMTQSPATLSVSPGERATLSCRASQSISTNLAWYQQKPGQAPRLLIYGASTRATGIPARFSGSGSGTEFTLTISSLQSDDFAVYYCQEYNNWRRVTFGPGTKVNIK

Human monoclonal antibodies against the spike receptor-binding domain (heavy:light variable regions). IC50 against pseudoviruses bearing the spike of naturally observed variants; lower = stronger; >10 µg/ml means not reached at the top dose. No active / inactive call. The stated detection limit is 0.0005 µg/ml; values near or below 0.001 µg/ml lie at the floor of the assay.

The first assay has as its target SARS-CoV-2 Omicron BA.1 spike pseudovirus. Briefly: pseudovirus neutralization IC50; higher = weaker neutralization. The procedure: (§1)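 Single-round VSV luciferase pseudovirus mixed with antibody dilutions for 1 h and put on Huh-7 cells for about a day; IC50 from the dose curve.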
With B1, the “pseudovirus neutralization IC50” value was 0.891 µg/mL.
Take B2: the “pseudovirus neutralization IC50” value was 0.0837 µg/mL.
Still for that read-out and setting: the same measure for B3: 0.00412 µg/mL; for B4: > 10 µg/mL; for B5: 0.215 µg/mL.
Regarding B6, the “pseudovirus neutralization IC50” value was 0.183 µg/mL.

The target in the next assay is SARS-CoV-2 Omicron BA.2 spike pseudovirus. Described as above. On the procedure:
as §1
As for B1, the “pseudovirus neutralization IC50” value stood at 0.0488 µg/mL.
As to B2, the “pseudovirus neutralization IC50” value came out at 0.0876 µg/mL.
Consider B3, for which the “pseudovirus neutralization IC50” value was 0.00403 µg/mL.
On the same count and under the same terms, the same measure for B4: > 10 µg/mL; for B5: 0.288 µg/mL.
Still for that read-out and setting: the same measure for B6: 0.141 µg/mL.

The target of the next assay is SARS-CoV-2 Omicron BA.2.75 spike pseudovirus. The assay is described as above. The procedure: as §1
As to B1, the “pseudovirus neutralization IC50” value is > 10 µg/mL.
B2: the “pseudovirus neutralization IC50” value came to 0.00424 µg/mL.
Turning to B3, the “pseudovirus neutralization IC50” value was 0.00154 µg/mL.
B4: the “pseudovirus neutralization IC50” value is > 10 µg/mL.
As for B5, the “pseudovirus neutralization IC50” value was found to be 3.26 µg/mL.
In the case of B6, the “pseudovirus neutralization IC50” value was determined as 0.225 µg/mL.

The next assay concerns the target SARS-CoV-2 Omicron BA.2.75.2 spike pseudovirus. The assay is described as above. On the procedure:
as §1
Turning to B1, the “pseudovirus neutralization IC50” value is > 10 µg/mL.

A further assay has as its target SARS-CoV-2 Omicron BA.5 spike pseudovirus. The description is as above. The procedure: as §1
Turning to B1, the “pseudovirus neutralization IC50” value was > 10 µg/mL.
The same measure, in the same setting: the same measure for B2: > 10 µg/mL; for B3: 3.9 µg/mL.
With B4, the “pseudovirus neutralization IC50” value was > 10 µg/mL.
Take B5: the “pseudovirus neutralization IC50” value is 3.2 µg/mL.
Take B6: the “pseudovirus neutralization IC50” value is > 10 µg/mL.

The target in another assay is SARS-CoV-2 Omicron BM.1.1.1 spike pseudovirus. Described as above. On the procedure:
as §1
With B1, the “pseudovirus neutralization IC50” value was > 10 µg/mL.

For a further assay, the target named is SARS-CoV-2 Omicron BQ.1.1 spike pseudovirus. The description is as above. On the procedure:
as §1
On to B1, for which the “pseudovirus neutralization IC50” value is > 10 µg/mL.
The same measure, in the same setting: as for B2, the figure is > 10 µg/mL; as for B3, 3.91 µg/mL.
B4: the “pseudovirus neutralization IC50” value was > 10 µg/mL.
On to B5, for which the “pseudovirus neutralization IC50” value was > 10 µg/mL.
Still for that read-out and setting: the same measure for B6: > 10 µg/mL.

The next assay addresses SARS-CoV-2 Omicron BR.2 spike pseudovirus. The assay is described as above. The procedure: as §1
With B1, the “pseudovirus neutralization IC50” value is > 10 µg/mL.

A further assay addresses SARS-CoV-2 Omicron CA.1 spike pseudovirus. The description is as above. The procedure:
as §1
For the molecule B1, the “pseudovirus neutralization IC50” value was > 10 µg/mL.

A further assay concerns the target SARS-CoV-2 Omicron XBB spike pseudovirus. Described as above. The procedure:
as §1
In the case of B1, the “pseudovirus neutralization IC50” value is > 10 µg/mL.
Turning to B2, the “pseudovirus neutralization IC50” value is > 10 µg/mL.
On the same count and under the same terms, as for B3, the figure is > 10 µg/mL; as for B4, > 10 µg/mL; as for B5, > 10 µg/mL.
The same measure, in the same setting: the same measure for B6: > 10 µg/mL.

The next assay concerns the target SARS-CoV-2 early D614G spike pseudovirus. The assay is described as above. The procedure:
as §1
Consider B1, for which the “pseudovirus neutralization IC50” value is > 10 µg/mL.
Turning to B2, the “pseudovirus neutralization IC50” value is 0.001 µg/mL.
As to B3, the “pseudovirus neutralization IC50” value came to 0.00106 µg/mL.
Take B4: the “pseudovirus neutralization IC50” value stood at 0.128 µg/mL.
Turning to B5, the “pseudovirus neutralization IC50” value is 0.00517 µg/mL.
On to B6, for which the “pseudovirus neutralization IC50” value was determined as 0.00198 µg/mL.
